Reference: patent US10765662B2, “Mono- or di-substituted indole derivatives as dengue viral replication inhibitors” (Janssen Pharmaceuticals, Inc., priority 2015, dated 2020)

Test system: DENV-2 16681 strain labeled with enhanced green fluorescent protein
Experiment: DENV-2 antiviral assay (eGFP fluorescence read-out in Vero cells)
Assay type: cell-based, Dengue virus
Settings: SI=CC50/EC50, DENV-2 antiviral assay
Method: The antiviral activity of all the compounds of the invention was tested against the DENV-2 16681 strain which was labeled with enhanced green fluorescent protein (eGPF). The culture medium consists of minimal essential medium supplemented with 2% of heat-inactivated fetal calf serum, 0.04% gentamycin (50 mg/mL) and 2 mM of L-glutamine. Vero cells, obtained from ECACC, were suspended in culture medium and 25 μL was added to 384-well plates (2500 cells/well), which already contain the antiviral compounds. Typically, these plates contain a 5-fold serial dilution of 9 dilution steps of the test compound at 200 times the final concentration in 100% DMSO (200 nL). […] Finally, each plate contains wells which are assigned as virus controls (containing cells and virus in the absence of compound), cell controls (containing cells in the absence of virus and compound) and medium controls (containing medium in the absence of cells, virus and compounds). To the wells assigned as medium control, 25 μL of culture medium was added instead of Vero cells. Once the cells were added to the plates, the plates were incubated for 30 minutes at room temperature to allow the cells to distribute evenly within the wells. Next, the plates were incubated in a fully humidified incubator (37° C., 5% CO2) until the next day. Then, DENV-2 strain 16681, labeled with eGFP, was added at a multiplicity of infection (MOI) of 0.5. Therefore, 15 μL of virus suspension was added to all the wells containing test compound and to the wells assigned as virus control. In parallel, 15 μL of culture medium was added to the medium and cell controls. Next, the plates were incubated for 3 days in a fully humidified incubator (37° C., 5% CO2). At the day of the read out, the eGFP fluorescence was measured using an automated fluorescence microscope at 488 nm (blue laser). Using an in-house LIMS system, inhibition dose response curves for each compound were calculated and the half maximal effective concentration (EC50) was determined. Therefore, the percent inhibition (I) for every test concentration is calculated using the following formula: I=100*([…])/(SVC−SCC); ST, SCC and SVC are the amount of eGFP signal in the test compound, cell control and virus control wells, respectively. The EC50 represents the concentration of a compound at which the virus replication is inhibited with 50%, as measured by a 50% reduction of the eGFP fluorescent intensity compared to the virus control. The EC50 is calculated using linear interpolation (Table 1).

SMILES | SI
COc1cc(NC(C(=O)c2c[nH]c3cc(F)ccc23)c2ccc(Cl)cc2OCCO)cc(S(C)(=O)=O)c1 (racemic) [Compound 1, 2-(4-chloro-2-(2-hydroxyethoxy)phenyl)-1-(6-fluoro-1H-indol-3-yl)-2-((3-methoxy-5-(methylsulfonyl)phenyl)amino)ethanone] | 11800
COc1cc(NC(C(=O)c2c[nH]c3cc(Cl)ccc23)c2ccc(Cl)cc2OCCO)cc(S(C)(=O)=O)c1 (racemic) [Compound 2, 1-(6-chloro-1H-indol-3-yl)-2-(4-chloro-2-(2-hydroxyethoxy)phenyl)-2-((3-methoxy-5-(methylsulfonyl)phenyl)amino)ethanone] | >10300
COc1cc(NC(C(=O)c2c[nH]c3cc(OC)ccc23)c2ccc(Cl)cc2OCCO)cc(S(C)(=O)=O)c1 (racemic) [Compound 3, 2-(4-chloro-2-(2-hydroxyethoxy)phenyl)-1-(6-methoxy-1H-indol-3-yl)-2-((3-methoxy-5-(methylsulfonyl)phenyl)amino)ethanone] | >31100
COc1cc(NC(C(=O)c2c[nH]c3c(C)c(F)ccc23)c2ccc(Cl)cc2OCCO)cc(S(C)(=O)=O)c1 (racemic) [Compound 4, 2-(4-chloro-2-(2-hydroxyethoxy)phenyl)-1-(6-fluoro-7-methyl-1H-indol-3-yl)-2-((3-methoxy-5-(methylsulfonyl)phenyl)amino)ethanone] | >7400
COc1cc(NC(C(=O)c2c[nH]c3c(C)c(Cl)ccc23)c2ccc(Cl)cc2OCCO)cc(S(C)(=O)=O)c1 (racemic) [Compound 5, 2-(4-chloro-2-(2-hydroxyethoxy)phenyl)-1-(6-chloro-7-methyl-1H-indol-3-yl)-2-((3-methoxy-5-(methylsulfonyl)phenyl)amino)ethanone] | >35600
COc1cc(NC(C(=O)c2c[nH]c3cc(OC)c(C)cc23)c2ccc(Cl)cc2OCCO)cc(S(C)(=O)=O)c1 (racemic) [Compound 6, 2-(4-chloro-2-(2-hydroxyethoxy)phenyl)-2-((3-methoxy-5-(methylsulfonyl)phenyl)amino)-1-(6-methoxy-5-methyl-1H-indol-3-yl)ethanone] | 12700
COc1cc(NC(C(=O)c2c[nH]c3cc(F)c(F)cc23)c2ccc(Cl)cc2OCCO)cc(S(C)(=O)=O)c1 (racemic) [Compound 7, 2-(4-chloro-2-(2-hydroxyethoxy)phenyl)-1-(5,6-difluoro-1H-indol-3-yl)-2-((3-methoxy-5-(methylsulfonyl)phenyl)amino)ethanone] | >10500
COc1cc(NC(C(=O)c2c[nH]c3cc(F)c(C)cc23)c2ccc(Cl)cc2OCCO)cc(S(C)(=O)=O)c1 (racemic) [Compound 8, 2-(4-chloro-2-(2-hydroxyethoxy)phenyl)-1-(6-fluoro-5-methyl-1H-indol-3-yl)-2-((3-methoxy-5-(methylsulfonyl)phenyl)amino)ethanone] | >9820
COc1cc(NC(C(=O)c2c[nH]c3ccc(C(F)(F)F)cc23)c2ccc(Cl)cc2OCCO)cc(S(C)(=O)=O)c1 (racemic) [Compound 9, 2-(4-chloro-2-(2-hydroxyethoxy)phenyl)-2-((3-methoxy-5-(methylsulfonyl)phenyl)amino)-1-(5-(trifluoromethyl)-1H-indol-3-yl)ethanone] | >30100
COc1cc(NC(C(=O)c2c[nH]c3ccc(OC(F)(F)F)cc23)c2ccc(Cl)cc2OCCO)cc(S(C)(=O)=O)c1 (racemic) [Compound 10, 2-(4-chloro-2-(2-hydroxyethoxy)phenyl)-2-((3-methoxy-5-(methylsulfonyl)phenyl)amino)-1-(5-(trifluoromethoxy)-1H-indol-3-yl)ethanone] | >29600
COc1cc(NC(C(=O)c2c[nH]c3cc(OC)c(OC(F)(F)F)cc23)c2ccc(Cl)cc2OCCO)cc(S(C)(=O)=O)c1 (racemic) [Compound 11, 2-(4-chloro-2-(2-hydroxyethoxy)phenyl)-2-((3-methoxy-5-(methylsulfonyl)phenyl)amino)-1-(6-methoxy-5-(trifluoromethoxy)-1H-indol-3-yl)ethanone] | 17200
COc1cc(NC(C(=O)c2c[nH]c3c(C)cc(OC(F)(F)F)cc23)c2ccc(Cl)cc2OCCO)cc(S(C)(=O)=O)c1 (racemic) [Compound 12, 2-(4-chloro-2-(2-hydroxyethoxy)phenyl)-2-((3-methoxy-5-(methylsulfonyl)phenyl)amino)-1-(7-methyl-5-(trifluoromethoxy)-1H-indol-3-yl)ethanone] | >45600
COc1cc(NC(C(=O)c2c[nH]c3cc(F)ccc23)c2ccc(Cl)cc2OCCO)cc(S(C)(=O)=O)c1 (single isomer, unassigned) [Compound 1B, 2-(4-chloro-2-(2-hydroxyethoxy)phenyl)-1-(6-fluoro-1H-indol-3-yl)-2-((3-methoxy-5-(methylsulfonyl)phenyl)amino)ethanone] | 2420
COc1cc(NC(C(=O)c2c[nH]c3cc(Cl)ccc23)c2ccc(Cl)cc2OCCO)cc(S(C)(=O)=O)c1 (single isomer, unassigned) [Compound 2B, 1-(6-chloro-1H-indol-3-yl)-2-(4-chloro-2-(2-hydroxyethoxy)phenyl)-2-((3-methoxy-5-(methylsulfonyl)phenyl)amino)ethanone] | 2130
COc1cc(NC(C(=O)c2c[nH]c3cc(OC)ccc23)c2ccc(Cl)cc2OCCO)cc(S(C)(=O)=O)c1 (single isomer, unassigned) [Compound 3B, 2-(4-chloro-2-(2-hydroxyethoxy)phenyl)-1-(6-methoxy-1H-indol-3-yl)-2-((3-methoxy-5-(methylsulfonyl)phenyl)amino)ethanone] | 226
COc1cc(NC(C(=O)c2c[nH]c3c(C)c(F)ccc23)c2ccc(Cl)cc2OCCO)cc(S(C)(=O)=O)c1 (single isomer, unassigned) [Compound 4B, 2-(4-chloro-2-(2-hydroxyethoxy)phenyl)-1-(6-fluoro-7-methyl-1H-indol-3-yl)-2-((3-methoxy-5-(methylsulfonyl)phenyl)amino)ethanone] | 509
COc1cc(NC(C(=O)c2c[nH]c3c(C)c(Cl)ccc23)c2ccc(Cl)cc2OCCO)cc(S(C)(=O)=O)c1 (single isomer, unassigned) [Compound 5A, 2-(4-chloro-2-(2-hydroxyethoxy)phenyl)-1-(6-chloro-7-methyl-1H-indol-3-yl)-2-((3-methoxy-5-(methylsulfonyl)phenyl)amino)ethanone] | 595
COc1cc(NC(C(=O)c2c[nH]c3cc(OC)c(C)cc23)c2ccc(Cl)cc2OCCO)cc(S(C)(=O)=O)c1 (single isomer, unassigned) [Compound 6B, 2-(4-chloro-2-(2-hydroxyethoxy)phenyl)-2-((3-methoxy-5-(methylsulfonyl)phenyl)amino)-1-(6-methoxy-5-methyl-1H-indol-3-yl)ethanone] | 164
COc1cc(NC(C(=O)c2c[nH]c3cc(F)c(F)cc23)c2ccc(Cl)cc2OCCO)cc(S(C)(=O)=O)c1 (single isomer, unassigned) [Compound 7B, 2-(4-chloro-2-(2-hydroxyethoxy)phenyl)-1-(5,6-difluoro-1H-indol-3-yl)-2-((3-methoxy-5-(methylsulfonyl)phenyl)amino)ethanone] | 1850
COc1cc(NC(C(=O)c2c[nH]c3cc(F)c(C)cc23)c2ccc(Cl)cc2OCCO)cc(S(C)(=O)=O)c1 (single isomer, unassigned) [Compound 8B, 2-(4-chloro-2-(2-hydroxyethoxy)phenyl)-1-(6-fluoro-5-methyl-1H-indol-3-yl)-2-((3-methoxy-5-(methylsulfonyl)phenyl)amino)ethanone] | >1450
COc1cc(NC(C(=O)c2c[nH]c3ccc(C(F)(F)F)cc23)c2ccc(Cl)cc2OCCO)cc(S(C)(=O)=O)c1 (single isomer, unassigned) [Compound 9A, 2-(4-chloro-2-(2-hydroxyethoxy)phenyl)-2-((3-methoxy-5-(methylsulfonyl)phenyl)amino)-1-(5-(trifluoromethyl)-1H-indol-3-yl)ethanone] | 5720
COc1cc(NC(C(=O)c2c[nH]c3ccc(OC(F)(F)F)cc23)c2ccc(Cl)cc2OCCO)cc(S(C)(=O)=O)c1 (single isomer, unassigned) [Compound 10A, 2-(4-chloro-2-(2-hydroxyethoxy)phenyl)-2-((3-methoxy-5-(methylsulfonyl)phenyl)amino)-1-(5-(trifluoromethoxy)-1H-indol-3-yl)ethanone] | 783
